In patent publication US10087173B2, “Substituted aminothiazoles as inhibitors of cancers, including hepatocellular carcinoma, and as inhibitors of hepatitis virus replication” (BARUCH S. BLUMBERG INSTITUTE, priority 2011, dated 2018):

Key:
THLE2 cells = experiment: MTT cell viability assay, THLE2 cells, 72 h; type: cell-based; conditions: Selective Index: ratio of CC50 in THLE2 over CC50 in Huh7
Description: Huh-7 cells and derived from hepatocellular carcinoma cells, and were donated by Dr. Xuanyong Lu, (Drexel University College of Medicine, Doylestown, Pa.). THLE-2 were purchased from American Type Culture Collection (Manassas, Va.). PH5CH were donated by Dr. Masayuki Noguchi (University of Tsukuba, Ibaraki, Japan). THLE-2 and PH5CH have been immortalized through stable transfection of the SV40 large T antigen in normal hepatocytes, and are thus cell lines that are representative of normal hepatocytes rather than HCC cells. […] All cell lines were cultured and maintained in 5% CO2 at 37° C. Huh-7 were maintained in the culture media DMEM/F12 (Dulbecco's Modified Eagle Medium) with 10% Fetal bovine serum (FBS), 100 μg/mL penicillin, 100 units/mL streptomycin, and 50 μg/mL normocin. THLE-2 and PH5CH were maintained in the culture media Brochial Epithelial Growth Media (BEGM) with 10% FBS, 100 μg/mL penicillin, 100 units/mL streptomycin, with the following additives form the prepackaged kit: Bovine pituitary extract (BPE), insulin, hydrocortisone, retinoic acid, transferrin, triiodothyronine, supplemented with 5 ng/ml human epidermal growth factor and 70 ng/ml phosphoethanolamine (Lonza Walkersville Inc., Walkersville, Md.).
(§1) Huh7 cells were plated on 96-well plates at 2.0×10^4 cells per well to permit grow in the presence of compounds of the disclosure. Compounds of the disclosure were prediluted and transferred to cell plates by automated liquid handling. Cells were incubated with compounds of the disclosure for 72 hours, after which culture growth and viability were assessed by addition of 50 μg/mL 3-(4,5-Dimethyl-2-thiazolyl)-2,5-diphenyl-2H-tetrazolium bromide (MTT) incubation for 4 hours at 37° C. Solubilization buffer (0.01M HCl, 10% SDS) was added followed by incubation at 37° C. overnight. Absorbance was measured at 570 nm (reference 630 nm). Compound of the disclosure were tested in Huh7, THLE-2 and PH5CH, over eight-point dilutions in half-log steps, testing 50.0, 16.6, 5.0, 1.66, 0.5, 0.166, 0.05, and 0.016 μM in 0.5% DMSO, with each concentration in duplicate wells. […] Each compound was tested from 2 to 7 times in separate assay trials.
(§2) Selectivity of toxicity in HCC-derived cells over normal liver-derived cells is important for the purposes of developing a therapy that specifically targets the cancer with low toxicity for […]. The Selective Index (SI) is the ratio of CC50 in normal cells (THLE2 or PH5CH) over the CC50 in the liver cancer derived cells; thus, the higher the number, the lower the potential toxicity at an efficacious dose.

PH5CH cells = experiment: MTT cell viability assay, PH5CH cells, 72 h; type: cell-based; conditions: Selective Index: ratio of CC50 in PH5CH over CC50 in Huh7
Description: Huh-7 cells and derived from hepatocellular carcinoma cells, and were donated by Dr. Xuanyong Lu, (Drexel University College of Medicine, Doylestown, Pa.). THLE-2 were purchased from American Type Culture Collection (Manassas, Va.). PH5CH were donated by Dr. Masayuki Noguchi (University of Tsukuba, Ibaraki, Japan). THLE-2 and PH5CH have been immortalized through stable transfection of the SV40 large T antigen in normal hepatocytes, and are thus cell lines that are representative of normal hepatocytes rather than HCC cells. THLE2 have been confirmed to not form tumors in athymic mice. All cell lines were cultured and maintained in 5% CO2 at 37° C. Huh-7 were maintained in the culture media DMEM/F12 (Dulbecco's Modified Eagle Medium) with 10% Fetal bovine serum (FBS), 100 μg/mL penicillin, 100 units/mL streptomycin, and 50 μg/mL normocin. THLE-2 and PH5CH were maintained in the culture media Brochial Epithelial Growth Media (BEGM) with 10% FBS, 100 μg/mL penicillin, 100 units/mL streptomycin, with the following additives form the prepackaged kit: Bovine pituitary extract (BPE), insulin, hydrocortisone, retinoic acid, transferrin, triiodothyronine, supplemented with 5 ng/ml human epidermal growth factor and 70 ng/ml phosphoethanolamine (Lonza Walkersville Inc., Walkersville, Md.).
as §1, §2

Row | SMILES | THLE2/Huh7 SI (THLE2 cells) | PH5CH/Huh7 SI (PH5CH cells)
1 | c1ccc(CN(c2ncccn2)c2nc(-c3ccccn3)cs2)cc1 [Entry 18] | 0.995 | 0.937
2 | FC(F)(F)c1ccnc(Nc2nc(-c3ccccn3)cs2)n1 [Entry 34] | 1.420 | 1.878
3 | c1ccc(-c2csc(Nc3ncccn3)n2)cc1 [Entry 3] | 1.423 | 
4 | c1ccc(Nc2nc(-c3ccccc3)cs2)cc1 [Entry 7] | 2.050 | 
5 | CN(c1ncccn1)c1nc(-c2ccccn2)cs1 [Entry 15] | 9.238 | 9.353
6 | COC(=O)c1sc(Nc2ncccn2)nc1-c1ccccn1 [Entry 38] | 23.591 | 30.978
7 | CC(C)c1sc(Nc2ncccn2)nc1-c1ccccn1 [Entry 24] | 4.434 | 4.434
8 | CC(C)(C)OC(=O)c1sc(N(c2ncccn2)C(C)(C)C)nc1-c1ccccn1 [Entry 44] | 2.442 | 2.442
9 | CC(C)N(c1ncccn1)c1nc(-c2ccccn2)cs1 [Entry 16] | 1.945 | 1.945
10 | Cl.NC(=O)c1sc(Nc2ncccn2)nc1-c1ccccn1 [Entry 41] | 0.532 | 1.000
11 | c1cnc(Nc2nc(-c3ccc4ccccc4n3)cs2)nc1 [Entry 32] | 0.160 | 1.000
12 | Oc1cccc(-c2csc(Nc3ncccn3)n2)n1 [Entry 28] | 1.083 | 1.083
13 | Brc1sc(Nc2ncccn2)nc1-c1ccccn1 [Entry 9] | 11.816 | 
14 | CCCC(=O)OCc1sc(Nc2ncccn2)nc1-c1ccccn1 [Entry 43] | 4.544 | 4.544
15 | CC(=O)OCc1sc(Nc2ncccn2)nc1-c1ccccn1 [Entry 42] | 1.274 | 1.274
16 | c1cnc(Nc2nc(-c3cccnc3)cs2)nc1 [Entry 4] | 1.374 | 
17 | Cl.O=C(NCc1ccccc1)c1sc(Nc2ncccn2)nc1-c1ccccn1 [Entry 37] | 2.818 | 1.775
18 | CCOC(=O)c1sc(Nc2nccc(C)n2)nc1-c1ccccn1 [Entry 31] | 3125 | 3125
19 | CCOC(=O)c1sc(Nc2ncccn2)nc1-c1cc(C)ccn1 [Entry 35] | 7.888 | 8.317
20 | Cc1cnc(-c2csc(Nc3ncccn3)n2)c(C)c1 [Entry 27] | 0.816 | 17.397
21 | N#Cc1sc(Nc2ncccn2)nc1-c1ccccn1 [Entry 29] | 3125 | 3125
22 | Cc1ccnc(-c2csc(Nc3ncccn3)n2)c1 [Entry 8] | 24.905 | 60.358

Row | SMILES | THLE2/Huh7 SI (THLE2 cells) | PH5CH/Huh7 SI (PH5CH cells)
23 | CCc1sc(Nc2ncccn2)nc1-c1ccccn1 [Entry 21] | 1.602 | 2.859
24 | c1ccc(-c2csc(Nc3ccncn3)n2)nc1 [Entry 12] | 1.464 | 
25 | Cc1sc(Nc2ncccn2)nc1-c1ccccn1 [Entry 22] | 7.232 | 7.086
26 | Clc1cnc(Nc2nc(-c3ccccn3)cs2)nc1 [Entry 13] | 1.428 | 
27 | c1cnc(Nc2nc(-c3ccncc3)cs2)nc1 [Entry 5] | 3.407 | 
28 | Brc1cnc(Nc2nc(-c3ccccn3)cs2)nc1 [Entry 14] | 1.290 | 
29 | OCCN(c1ncccn1)c1nc(-c2ccccn2)cs1 [Entry 17] | 1.022 | 1.022
30 | c1ccc(-c2csc(Nc3cnccn3)n2)nc1 [Entry 11] | 0.108 | 
31 | Oc1cccc(Nc2nc(-c3ccccc3)cs2)c1 [Entry 45] | 6.250 | 
32 | CCOC(=O)c1sc(Nc2ncccn2)nc1-c1cccc(C)n1 [Entry 36] | 1.000 | 1.000
33 | c1ccc(-c2nc(Nc3ncccn3)sc2C2CCCCC2)nc1 [Entry 33] | 0.071 | 1.000
34 | CN(Cc1cnc2nc(N)nc(N)c2n1)c1ccc(C(=O)NC(CCC(=O)NCCOCCOCCOCCOCCOCCNC(=O)c2sc(Nc3ncccn3)nc2-c2ccccn2)C(=O)OC(C)(C)C)cc1 (stereo not drawn) [Entry 40] | 1.435 | 1.435
35 | CCOC(=O)c1sc(Nc2ncccn2)nc1-c1ccccn1 [Entry 19] | 106.972 | 121.642
36 | Cc1ccc2nc(Nc3nc(-c4ccccn4)cs3)sc2c1 [Entry 23] | 0.805 | 0.807
37 | Cc1ccnc(Nc2nc(-c3ccccn3)cs2)n1 [Entry 30] | 1.000 | 1.000
38 | c1ccc(-c2csc(Nc3ncccn3)n2)nc1 [Entry 1] | 28.833 | 36.058
39 | OCc1sc(Nc2ncccn2)nc1-c1ccccn1 [Entry 20] | 2.748 | 4.137
40 | CCCCCc1sc(Nc2ncccn2)nc1-c1ccccn1 [Entry 25] | 1.932 | 1.932
41 | CNC(=O)c1sc(Nc2ncccn2)nc1-c1ccccn1.Cl [Entry 39] | 0.792 | 0.222
42 | N#Cc1sc(Nc2ncccn2)nc1-c1ccccn1 [Entry 47] | 3125.00 | 3125.00
43 | Brc1cccc(-c2csc(Nc3ncccn3)n2)n1 [Entry 10] | 1.247 | 
